PubChem BioAssay AID1259414 – Drosophila RNAi Screening Center | 2018
The deposit covers about 24,000 reagents; this is a random part of those with a known target gene and a result. Of all reagents, about 1,210 (5%) were called active. 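Inactive calls also include excluded dsRNAs with several or no targets, genes unexpressed in JW18, and well A1, regardless of score.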 Entries without a mark were called inactive. Names joined by + are all predicted targets of the reagent. Reagent sequences are not shown.

Assay: 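Fly genes that alter Wolbachia amount inside host cells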 (primary screen)
Cell system: Drosophila JW18 cells infected with Wolbachia
Reagent: long dsRNA against Drosophila genes, 0.25 µg dsRNA per well of a 384-well plate
Timing: 5 days
Challenge: cells persistently infected with Wolbachia before knock-down; no added drug
Measurement: 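Automated imaging of bacterial rRNA staining divided by host cell count, reported as plate-normalised robust z-score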
Reading the numbers: Wolbachia per cell robust z: higher = more Wolbachia per host cell than the plate typical
Rule for the call: 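Hit when robust z is 1.5 or more, or -1.5 or less, in at least two of three replicates; excludes dsRNAs with several or no targets, genes not expressed in JW18 and well A1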

{"Target gene":"CG14757 (GeneID 35797)","dsRNA":"DRSC06492","Wolbachia per cell robust z, rep 1":1.09,"Wolbachia per cell robust z, rep 2":-0.0221,"Wolbachia per cell robust z, rep 3":0.0916}
{"Target gene":"CG14757 (GeneID 35797)","dsRNA":"DRSC25690","Wolbachia per cell robust z, rep 1":"0.944 (active)","Wolbachia per cell robust z, rep 2":-2.9,"Wolbachia per cell robust z, rep 3":-11.1}
{"Target gene":"RecQ5 (GeneID 39594)","dsRNA":"DRSC11266","Wolbachia per cell robust z, rep 1":1.19,"Wolbachia per cell robust z, rep 2":-0.067,"Wolbachia per cell robust z, rep 3":0.5}
{"Target gene":"trbd (GeneID 41179)","dsRNA":"DRSC16494","Wolbachia per cell robust z, rep 1":0.0727,"Wolbachia per cell robust z, rep 2":0.731,"Wolbachia per cell robust z, rep 3":1.14}
{"Target gene":"trbd (GeneID 41179)","dsRNA":"DRSC27999","Wolbachia per cell robust z, rep 1":"1.61 (active)","Wolbachia per cell robust z, rep 2":1.87,"Wolbachia per cell robust z, rep 3":0.686}
{"Target gene":"CG15760 (GeneID 32324)","dsRNA":"DRSC19725","Wolbachia per cell robust z, rep 1":-0.29,"Wolbachia per cell robust z, rep 2":-0.492,"Wolbachia per cell robust z, rep 3":0.946}
{"Target gene":"CG15760 (GeneID 32324)","dsRNA":"DRSC25944","Wolbachia per cell robust z, rep 1":0.608,"Wolbachia per cell robust z, rep 2":1.24,"Wolbachia per cell robust z, rep 3":-0.285}
{"Target gene":"EndoG (GeneID 36309)","dsRNA":"DRSC07292","Wolbachia per cell robust z, rep 1":0.433,"Wolbachia per cell robust z, rep 2":0.388,"Wolbachia per cell robust z, rep 3":-0.577}
{"Target gene":"EndoG (GeneID 36309)","dsRNA":"DRSC22746","Wolbachia per cell robust z, rep 1":-0.648,"Wolbachia per cell robust z, rep 2":0.456,"Wolbachia per cell robust z, rep 3":0.206}
{"Target gene":"EndoG (GeneID 36309)","dsRNA":"DRSC26632","Wolbachia per cell robust z, rep 1":"-3.68 (active)","Wolbachia per cell robust z, rep 2":1.26,"Wolbachia per cell robust z, rep 3":-9.3}
{"Target gene":"CG15237 (GeneID 35591)","dsRNA":"DRSC04971","Wolbachia per cell robust z, rep 1":-0.839,"Wolbachia per cell robust z, rep 2":-1.09,"Wolbachia per cell robust z, rep 3":-0.00326}
{"Target gene":"CG34040 (GeneID 3885655)","dsRNA":"DRSC38894","Wolbachia per cell robust z, rep 1":-0.684,"Wolbachia per cell robust z, rep 2":-1.42,"Wolbachia per cell robust z, rep 3":0.872}
{"Target gene":"Slc25A46a (GeneID 32564)","dsRNA":"DRSC20125","Wolbachia per cell robust z, rep 1":0.113,"Wolbachia per cell robust z, rep 2":0.274,"Wolbachia per cell robust z, rep 3":0.0541}
{"Target gene":"Uck (GeneID 42894)","dsRNA":"DRSC16028","Wolbachia per cell robust z, rep 1":0.0957,"Wolbachia per cell robust z, rep 2":0.941,"Wolbachia per cell robust z, rep 3":-0.607}
{"Target gene":"Uck (GeneID 42894)","dsRNA":"DRSC41621","Wolbachia per cell robust z, rep 1":-0.28,"Wolbachia per cell robust z, rep 2":-1.95,"Wolbachia per cell robust z, rep 3":-1.08}
{"Target gene":"CG14227 (GeneID 32978)","dsRNA":"DRSC19584","Wolbachia per cell robust z, rep 1":0.393,"Wolbachia per cell robust z, rep 2":-1.12,"Wolbachia per cell robust z, rep 3":0.207}
{"Target gene":"CG14227 (GeneID 32978)","dsRNA":"DRSC29213","Wolbachia per cell robust z, rep 1":0.0898,"Wolbachia per cell robust z, rep 2":-0.677,"Wolbachia per cell robust z, rep 3":-0.139}
{"Target gene":"Aef1 (GeneID 40370)","dsRNA":"DRSC11605","Wolbachia per cell robust z, rep 1":-0.694,"Wolbachia per cell robust z, rep 2":-0.177,"Wolbachia per cell robust z, rep 3":-0.178}
{"Target gene":"CG32797 (GeneID 318215)","dsRNA":"DRSC25152","Wolbachia per cell robust z, rep 1":-0.299,"Wolbachia per cell robust z, rep 2":0.607,"Wolbachia per cell robust z, rep 3":-0.885}
{"Target gene":"Atg10 + CG12822","dsRNA":"DRSC06796","Wolbachia per cell robust z, rep 1":0.108,"Wolbachia per cell robust z, rep 2":0.347,"Wolbachia per cell robust z, rep 3":-0.23}
{"Target gene":"Srg2 (GeneID 39179)","dsRNA":"DRSC10681","Wolbachia per cell robust z, rep 1":1.26,"Wolbachia per cell robust z, rep 2":0.407,"Wolbachia per cell robust z, rep 3":0.953}
{"Target gene":"Srg2 (GeneID 39179)","dsRNA":"DRSC24667","Wolbachia per cell robust z, rep 1":0.581,"Wolbachia per cell robust z, rep 2":0.653,"Wolbachia per cell robust z, rep 3":0.325}
{"Target gene":"CG5618 (GeneID 40241)","dsRNA":"DRSC11780","Wolbachia per cell robust z, rep 1":0.476,"Wolbachia per cell robust z, rep 2":-1.02,"Wolbachia per cell robust z, rep 3":-4.6}
{"Target gene":"CG5618 (GeneID 40241)","dsRNA":"DRSC28806","Wolbachia per cell robust z, rep 1":0.885,"Wolbachia per cell robust z, rep 2":1.17,"Wolbachia per cell robust z, rep 3":0.479}

4 entries from above, reduced to “Wolbachia per cell robust z, rep 1”.
Uck (GeneID 42894) [DRSC41621]: -0.28
CG14227 (GeneID 32978) [DRSC19584]: 0.393
CG14227 (GeneID 32978) [DRSC29213]: 0.0898
Aef1 (GeneID 40370) [DRSC11605]: -0.694
